Anti-infective test results gathered from many reports (values: NIAID ChemDB through PubChem).

Common to all: growth or infection tests; organism: Coxsackie virus

An empty or dashed field is not shown. Rows are shuffled and stem from different studies. ECn: concentration that inhibits the pathogen or its effect by n%. a–b is a range or a potency band.

compound,method,measure,cells,strain,value
CSc1nc(Cl)c(C=O)c(N2CC[N+]3(CC2)CC[N+]2(CCN(c4nc(SC)nc(Cl)c4C=O)CC2)CC3)n1,cytopathic effect,EC50,HeLa,B3,>70 µg/mL
Nc1ccn([C@@H]2OC[C@H](CO)[C@H]2O)c(=O)n1,cytopathic effect,EC50,HeLa,TYPE B4,>80 µg/mL
Nc1nc2c(ccn2[C@@H]2C[C@H](CO)[C@@H](O)[C@@H]2O)c(=O)[nH]1,-,MIC,-,A21,>100 µg/mL
Nc1ncnc2c1ncn2[C@@H]1O[C@H](C=NOCc2ccccc2)[C@@H](O)[C@H]1O,cytopathic effect,EC50,VERO,Strain B4,>100 µg/mL
N#Cc1cc([N+](=O)[O-])ccc1Oc1ccc(Cl)c(Cl)c1,cytopathic effect,EC50,HeLa,TYPE B3,1.5 µg/mL
Cc1cn(C(CF)CCCO)c(=O)[nH]c1=O,cytopathic effect,EC50,HeLa,TYPE B4,>400 µg/mL
Nc1ncnc2c1ncn2[C@@H]1C[C@H](CO)[C@@H](O)[C@H]1O,cytopathic effect,EC50,VERO,TYPE B4,2 µg/mL
Nc1ncnc2c1ncn2[C@H]1C[C@H](O)[C@@H](C=O)O1,cytopathic effect,EC50,VERO,Strain B4,>200 µg/mL
Cc1nc(-c2cc(C)c(OCCCc3ccco3)c(C)c2)no1,cytopathic effect,EC50,HeLa,-,0.033–0.659 µg/mL
O=C(Nn1c(-c2cn(-c3ccccc3)nc2-c2ccccc2)n[nH]c1=S)c1ccccc1,cytopathic effect,EC50,HeLa,TYPE B4,48 µg/mL
CCN(CC)C(=S)Sc1ncnc(N2CC[N+]3(CC2)CC[N+]2(CCN(c4ncnc(SC(=S)N(CC)CC)c4[N+](=O)[O-])CC2)CC3)c1[N+](=O)[O-],cytopathic effect,EC50,HeLa,B3,>70 µg/mL
COC(=O)[C@]1(C)CCC[C@]2(C)c3ccc4[nH]c(C)nc4c3CCC12,plaque count,EC50,HeLa,TYPE B4,>4 µg/mL
CC1=C[C@@H](n2cnc3c(N)ncnc32)[C@H](O)[C@@H]1O,cytopathic effect,EC50,VERO,TYPE B4,>200 µg/mL
Nc1ccn(C(CF)CCCO)c(=O)n1,cytopathic effect,EC50,HeLa,TYPE B4,>400 µg/mL
CCOC(=O)/C=C/C=C/[C@H]1O[C@@H](n2ccc(=O)[nH]c2=O)[C@H](O)[C@@H]1O,-,EC50,HeLa,B4,≥200 µM
Cc1ccc(C(=O)CCCCOc2ccc(C3=NCC(C)O3)cc2)s1,cytopathic effect,EC50,VERO,TYPE B2,3.08 µM
Cc1cc(OCCCc2ccc(CO)nn2)cc(C)c1-c1noc(C(F)F)n1,cytopathic effect,EC50,HeLa,-,0.033–0.659 µg/mL
Nc1nccc2c1ncn2[C@@H]1C=C[C@@H](O)[C@H]1O,-,MIC,-,TYPE B4,>400 µg/mL
CS(=O)(=O)c1ccc(NCc2ccc(Cl)cc2)nc1,cytopathic effect,EC50,HeLa,TYPE A21,1.6 µg/mL
Cc1cn([C@H]2OC[C@@H](CO)C2F)c(=O)[nH]c1=O,cytopathic effect,EC50,VERO,TYPE B4,>80 µg/mL
Cc1ccn2c(C(SCCc3ccccc3)SCCc3ccccc3)cnc2c1,-,EC50,HeLa,TYPE B4,>1000 µM
Nc1ncnc2c1ncn2[C@@H]1C[C@H](COP(=O)(O)O)[C@@H](O)[C@H]1O,cytopathic effect,EC50,VERO,TYPE B4,>200 µg/mL
COCc1ccc(CCCOc2c(C)cc(-c3noc(C(F)F)n3)cc2C)nn1,cytopathic effect,EC50,HeLa,-,0.033–0.659 µg/mL
Nc1ncnc2c1ncn2C(CF)CCCO,cytopathic effect,EC50,HeLa,TYPE B4,>400 µg/mL
[N-]=[N+]=N[C@H]1[C@@H](F)[C@H](n2cnc3c(N)ncnc32)O[C@@H]1CO,cytopathic effect,EC50,HeLa,TYPE B4,300 µg/mL
CCC(Sc1ncnc2c1cnn2COCC(O)CO)C(N)=O,cytopathic effect,EC50,HeLa,TYPE B4,>400 µg/mL
Nc1ccn([C@@H]2C[C@H](CO)[C@@H](O)[C@H]2O)c(=O)n1,cytopathic effect,EC50,HeLa,TYPE B4,>400 µg/mL
CC1(C)[C@@H](CO)CC[C@@]1(C)Cn1cc(Br)c(=O)[nH]c1=O,cytopathic effect,EC50,HeLa,TYPE B4,>400 µg/mL
CSc1nsc(-c2cccs2)c1C#N,plaque count,EC50,HEP-2,TYPE B1,>6 µM
CCC(Sc1ncnc2c1cnn2CCCCO)C(N)=O,cytopathic effect,EC50,HeLa,TYPE B4,>400 µg/mL
CC1(C)[C@@H](CO)CC[C@@]1(C)Cn1ccc(=O)[nH]c1=O,cytopathic effect,EC50,HeLa,TYPE B4,>400 µg/mL
COC(=O)Nc1nc2c3c(ccc2[nH]1)[C@@]1(C)CCC[C@@](C)(C(=O)OC)C1CC3,plaque count,EC50,HeLa,TYPE B4,>4 µg/mL
Cc1cc(OCCCc2ccc(F)nn2)cc(C)c1-c1noc(C(F)(F)F)n1,cytopathic effect,EC50,HeLa,-,0.033–0.659 µg/mL
Nc1nc2c(ncn2[C@@H]2O[C@H](CO)[C@@H](F)[C@H]2O)c(=O)[nH]1,cytopathic effect,EC50,VERO B,TYPE B4,40 µg/mL
Cc1cc(CCCCCCCOc2ccc(C3=NCCO3)cc2)on1,cytopathic effect,EC50,VERO,TYPE B2,14.1 µM
Cc1cn([C@@H]2OC[C@H](CO)[C@H]2O)c(=O)[nH]c1=O,cytopathic effect,EC50,HeLa,TYPE B4,>80 µg/mL
Cc1cn([C@H]2C/C(=N\O)[C@@H](CO)O2)c(=O)[nH]c1=O,cytopathic effect,EC50,VERO,-,>200 µg/mL
Cc1cc(OCCCc2ccc(I)nn2)cc(C)c1-c1noc(C(F)F)n1,cytopathic effect,EC50,HeLa,-,0.033–0.659 µg/mL
CSc1nsc(-c2ccc(O)cc2)c1C#N,plaque count,EC50,HEP-2,TYPE B1,>2 µM
CCOC(=O)c1cnc(SC)nc1N1CC[N+]2(CC1)CC[N+]1(CCN(c3nc(SC)ncc3C(=O)OCC)CC1)CC2,cytopathic effect,EC50,HeLa,B3,>70 µg/mL
c1ccc(C2=Nn3c(nnc3-c3cn(-c4ccccc4)nc3-c3ccccc3)SC2)cc1,cytopathic effect,EC50,HeLa,TYPE B4,1.92 µg/mL
Nc1ncnc2c1ncn2[C@@H]1O[C@H](C=O)C[C@H]1O,cytopathic effect,EC50,VERO,Strain B4,>200 µg/mL
COC(=O)[C@]1(C)CCC[C@]2(C)c3cc(Br)c4[nH]ccc4c3CCC12,plaque count,EC50,HeLa,TYPE B4,>4 µg/mL
Cc1nn2c(-c3cn(-c4ccccc4)nc3-c3ccccc3)nnc2s1,cytopathic effect,EC50,HeLa,TYPE B4,>16 µg/mL
CC1(C)[C@@H](CO)CC[C@@]1(C)Cn1cnc2c(=O)[nH]cnc21,cytopathic effect,EC50,HeLa,TYPE B4,>400 µg/mL
CSc1nsc(-c2ccccc2)c1C#N,plaque count,EC50,HEP-2,TYPE B1,>20 µM
Nc1ncnc2c1ncn2[C@@H]1O[C@H](/C=N/O)[C@@H](O)[C@@H]1O,cytopathic effect,EC50,VERO,Strain B4,>40 µg/mL
CS(=O)(=O)c1ccc(Cc2ccc(Cl)c(Cl)c2)nc1,cytopathic effect,EC50,HeLa,TYPE B3,>10 µg/mL
CS(=O)(=O)c1ccc(Oc2ccc(C(=O)c3ccccc3)cc2)nc1,cytopathic effect,EC50,HeLa,A7,0.3 µg/mL
CCS(=O)(=O)c1ccc(NCc2ccc(Cl)c(Cl)c2)nc1,cytopathic effect,EC50,HeLa,TYPE A21,>10 µg/mL
CC(=O)Nn1c(-c2cn(-c3ccccc3)nc2-c2ccccc2)n[nH]c1=S,cytopathic effect,EC50,HeLa,TYPE B4,>80 µg/mL
CC1(C)[C@@H](CO)CC[C@@]1(C)Cn1cc(I)c(=O)[nH]c1=O,cytopathic effect,EC50,VERO,TYPE B4,>400 µg/mL
Nc1ncnc2c1ncn2[C@@H]1C=C(CO)[C@@H](O)[C@H]1O,cytopathic effect,EC50,HeLa,TYPE B4,>40 µg/mL
COC(=O)[C@]1(C)CCC[C@]2(C)c3cc(Br)c4nc(C(F)(F)F)[nH]c4c3CCC12,plaque count,EC50,HeLa,TYPE B4,>4 µg/mL
Cc1ccc(C(=O)CCCCCCOc2ccc(C3=NC(C)(C)CO3)cc2)s1,cytopathic effect,EC50,VERO,TYPE B5,>26.95 µM
S=c1[nH]nc(-c2cn(-c3ccccc3)nc2-c2ccccc2)o1,cytopathic effect,EC50,VERO,TYPE B4,>16 µg/mL
NC(=O)CSc1ncnc2c1cnn2COCCO,cytopathic effect,EC50,VERO,TYPE B4,>400 µg/mL
Nc1nccc2c1ncn2[C@@H]1C[C@H](CO)[C@@H](O)[C@H]1O,-,MIC,-,TYPE B4,>400 µg/mL
CSc1nsc(-c2ccc(C)cc2)c1C#N,plaque count,EC50,HEP-2,TYPE B1,>18 µM
Cc1cc(CCCCCOc2c(Cl)cc(C3=NCCO3)cc2Cl)on1,plaque count,EC50,RD-2,B1,0.03 µg/mL
Cc1cccn2c(C3OCCS3)cnc12,-,EC50,VERO,TYPE B4,>1000 µM
CS(=O)(=O)c1ccc(NCc2ccc(Cl)c(Cl)c2)nc1,cytopathic effect,EC50,HeLa,TYPE A21,0.6 µg/mL
CON=C[C@H]1O[C@@H](n2cnc3c(N)ncnc32)[C@H](O)[C@@H]1O,cytopathic effect,EC50,HeLa,B4,>200 µg/mL
Cc1ccc(C(=O)CCCCCCOc2ccc(C3=NC(C)CO3)cc2)s1,cytopathic effect,EC50,VERO,TYPE B2,>25.97 µM
CCc1ccc(CCCOc2cc(C)c(-c3noc(C(F)(F)F)n3)c(C)c2)nn1,cytopathic effect,EC50,HeLa,-,0.033–0.659 µg/mL
CS(=O)(=O)c1ccc(NCc2ccc(C(F)(F)F)cc2)nc1,cytopathic effect,EC50,HeLa,TYPE A21,<1.6 µg/mL
Nc1ncnc2c1ncn2C[C@H](O)CO,cytopathic effect,EC50,HeLa,TYPE B4,>200 µg/mL
Cc1ccn2c(C3SCCS3)cnc2c1,-,EC50,VERO,TYPE B4,>1000 µM
Nc1ncnc2c1ncn2[C@@H]1C=C(CCl)[C@@H](O)[C@H]1O,cytopathic effect,EC50,VERO,TYPE B4,>40 µg/mL
Nc1ncnc2c1ncn2[C@H]1C[C@H](O)[C@@H](/C=N/O)O1,cytopathic effect,EC50,VERO,Strain B4,>100 µg/mL
CS(=O)(=O)c1ccc(Cc2ccc(F)cc2)nc1,cytopathic effect,EC50,HeLa,TYPE A21,2.5 µg/mL
CCC1COC(c2ccc(OCCCCCCC(=O)c3ccc(C)s3)cc2)=N1,cytopathic effect,EC50,VERO,TYPE B2,>25.06 µM
Cc1cc(OCCCc2ccc(=S)[nH]n2)cc(C)c1-c1noc(C(F)F)n1,cytopathic effect,EC50,HeLa,-,0.033–0.659 µg/mL
N#Cc1cccnc1Oc1ccc(C(=O)c2ccccc2)cc1,cytopathic effect,EC50,HeLa,TYPE A21,≤2.1 µg/mL
Cc1cccn2c(C3OCCO3)cnc12,-,EC50,HeLa,TYPE B4,>1000 µM
Cc1ccc(CCCOc2c(C)cc(-c3nnn(C)n3)cc2C)o1,cytopathic effect,EC50,HeLa,-,0.033–0.659 µg/mL
c1ccc(-c2nn3c(-c4cn(-c5ccccc5)nc4-c4ccccc4)nnc3s2)cc1,cytopathic effect,EC50,VERO,TYPE B4,>16 µg/mL
O=[N+]([O-])c1cncnc1N1CC[N+]2(CC1)CC[N+]1(CCN(c3ncncc3[N+](=O)[O-])CC1)CC2,cytopathic effect,EC50,HeLa,B3,>70 µg/mL
NC(=O)CSc1ncnc2c1cnn2COCC(O)CO,cytopathic effect,EC50,VERO,TYPE B4,>400 µg/mL
CC1=Nn2c(nnc2-c2cn(-c3ccccc3)nc2-c2ccccc2)SC1,cytopathic effect,EC50,HeLa,TYPE B4,>3.2 µg/mL
Nc1ncnc2c1ncn2[C@@H]1O[C@H](CO)[C@@H](F)[C@H]1O,cytopathic effect,EC50,HeLa,TYPE B4,2 µg/mL
CCOC(=O)Sc1nnc(-c2cn(-c3ccccc3)nc2-c2ccccc2)n1N,cytopathic effect,EC50,HeLa,TYPE B4,>80 µg/mL
Nc1ncnc2c1ncn2[C@@H]1C=C[C@@H](O)[C@H]1O,-,MIC,-,TYPE B4,>400 µg/mL
Cc1ccc(C(=O)CCCCOc2ccc(C3=N[C@H](C)CO3)cc2)s1,cytopathic effect,EC50,VERO,TYPE B2,2.52 µM

Again, the opening 10 rows:

CSc1nc(Cl)c(C=O)c(N2CC[N+]3(CC2)CC[N+]2(CCN(c4nc(SC)nc(Cl)c4C=O)CC2)CC3)n1 ; method: cytopathic effect ; measure: EC50 ; cells: HeLa ; strain: B3 ; value: >70 µg/mL
Nc1ccn([C@@H]2OC[C@H](CO)[C@H]2O)c(=O)n1 ; method: cytopathic effect ; measure: EC50 ; cells: HeLa ; strain: TYPE B4 ; value: >80 µg/mL
Nc1nc2c(ccn2[C@@H]2C[C@H](CO)[C@@H](O)[C@@H]2O)c(=O)[nH]1 ; measure: MIC ; strain: A21 ; value: >100 µg/mL
Nc1ncnc2c1ncn2[C@@H]1O[C@H](C=NOCc2ccccc2)[C@@H](O)[C@H]1O ; method: cytopathic effect ; measure: EC50 ; cells: VERO ; strain: Strain B4 ; value: >100 µg/mL
N#Cc1cc([N+](=O)[O-])ccc1Oc1ccc(Cl)c(Cl)c1 ; method: cytopathic effect ; measure: EC50 ; cells: HeLa ; strain: TYPE B3 ; value: 1.5 µg/mL
Cc1cn(C(CF)CCCO)c(=O)[nH]c1=O ; method: cytopathic effect ; measure: EC50 ; cells: HeLa ; strain: TYPE B4 ; value: >400 µg/mL
Nc1ncnc2c1ncn2[C@@H]1C[C@H](CO)[C@@H](O)[C@H]1O ; method: cytopathic effect ; measure: EC50 ; cells: VERO ; strain: TYPE B4 ; value: 2 µg/mL
Nc1ncnc2c1ncn2[C@H]1C[C@H](O)[C@@H](C=O)O1 ; method: cytopathic effect ; measure: EC50 ; cells: VERO ; strain: Strain B4 ; value: >200 µg/mL
Cc1nc(-c2cc(C)c(OCCCc3ccco3)c(C)c2)no1 ; method: cytopathic effect ; measure: EC50 ; cells: HeLa ; value: 0.033–0.659 µg/mL
O=C(Nn1c(-c2cn(-c3ccccc3)nc2-c2ccccc2)n[nH]c1=S)c1ccccc1 ; method: cytopathic effect ; measure: EC50 ; cells: HeLa ; strain: TYPE B4 ; value: 48 µg/mL